Assay: Checking of quality of semicarbazide slides with rhodamine-conjugated peptide probe
Settings: probe 0.1 mM, pH 5.5, 1 hour 37° C.
[1] = functionalised slides, first modification
[2] = functionalised slides, second modification

Substance | Mean fluorescence [1] | Mean fluorescence [2] | Mean fluorescence (non-functionalised slides)
(5)-6-carboxytetramethyl-rhodamine-Lys-Arg-NH2 [amide] | 3450 | 1732 | 5270
(5)-6-carboxytetramethylrhodamine-Lys-Arg-NH—(CH2)3—NH—CO—CHO [α-oxo aldehyde] | 36260 | 28882 | 7789
